# Human monoclonal antibodies against the spike receptor-binding domain (heavy:light variable regions). IC50 against pseudoviruses bearing the spike of naturally observed variants; lower = stronger; >10 µg/ml means not reached at the top dose. No active / inactive call. The stated detection limit is 0.0005 µg/ml; values near or below 0.001 µg/ml lie at the floor of the assay.
# B1: BD55-5456 (protein)
# chain 1: EVQLVESGGGWVQPGGSLRLSCEASGFTFTNFALHWVRQAPGSGLEYVSSITSNGGGTFYATSVEGRFTISRDNAKNTLYLQMGSLRHEDMGVYYCARESTITVSTILDYWGQGTRVTVSS
# chain 2: DIQMTQSPSSLSASVGDRVTITCRASQSIVRYLNWYQQKPGKAPKLLIYGASSLQSGVPSRFSGSGSGTDFTLTISSLQPEDFATYYCQQSYITPLYTFGPGTKLEIK
# B2: BD55-5474 (protein)
# chain 1: QLQLQESGPGLVKPSETLSLTCSVSGASIINDHYSWAWVRQPPGKGLEWIGNIYYNGKTYYNPSLKSRVTISGDTPRNRLSLKLSSVTAADTAVYYCARRATGYSGYDIFGNDAFDSWGQGTLVSVSS
# chain 2: QSVLTQPPSVSGAPGQRVTISCTGSSSNIGAGYDVHWYQQVPGTAPKLLIYDNNNRPSGVPDRFSGSKSGTSASLAITGLQAEDEADYYCQSYDSSLSGSSVFGTGTKVTVL
# B3: BD55-5468 (protein)
# chain 1: EVQLVESGGGLVKPGGSLRLSCAASGFTFSSYTMNWVRQAPGKGLEWVSSISGSSSFIFYADSLKGRFSISRDNAKNSLYLQMSSLRAEDTAIYYCARNYEILTAYSDAEYFQHWGQGTLVTVSS
# chain 2: EIVLTQSPATLSLSPGERATLSCRASQSVSSSLAWYQQKPGQAPRLLIYDASNRATGIPPRFSGSGSGTDFTLTISSLEPEDFAVYYCQQRSNWPPYTFGQGTKVEIK
# B4: BD55-5526 (protein)
# chain 1: EVQLVESGGVVVQPGGSLRLSCAASGFTFNDYAMHWVRQPPGKGLEWVSLISWDGGSTYYGDSVKGRFTISRDNSKNSLYLQMKSLRAEDTALYYCAKDDDYYGSGSYGGLDVWGQGTTVTVSS
# chain 2: DIQMTQSPSAMSASIGDRVTITCRASQDINYYLAWFQQKPGKVPKRLIYGASSLQSGVPSRFSGSGSGTEFTLTISSLQPEDFATYYCLQHSSYPWTFGQGTKVEIK
# B5: BD55-5453 (protein)
# chain 1: EVQLVESGGGLVKPGESLRLSCAASGFTFNSYSMYWVRQAPGKGLEWVSCLSSSGTLVFYADSVKGRFTISRDNAQKSLYLQMNSLRAEDTAVYYCARESNRPRGVDFDYWGQGTLVAVSS
# chain 2: DIQMTQSPSSLSASVGDRVSITCRASQSIGNYLNWYQQKPGKAPKLLIYAASNLQNGVPSRFSGSGSGTDFTLTISSLQPEDFATYYCQQGYSTPGVTFGPGTKVDIK
# B6: BD55-5463 (protein)
# chain 1: QVQLVQSGSELKKPGASVKVSCKASGYTFTTYSVKWVRQAPGQGLEWMGWINTNTGNPTYAQGFTGRFVFSLDTSVNTAYLLISSLRAEDTAVYYCARVYCNDYSCYDVDYWGQGTLVTVSS
# chain 2: QSVLTQPPSASGTPGQRVTISCSGSISNIGSNFVYWYQQLPGTAPKLLIYRDDHRPSGVPDRISGSKSGTSASLAVSGLRSEDEADYYCAAWDDTVSGRLFGGGTRLTVL
# Biological target: SARS-CoV-2 Omicron BA.1 spike pseudovirus
# Experiment: pseudovirus neutralization IC50; higher = weaker neutralization
# Procedure: (§1)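 Single-round VSV luciferase pseudovirus mixed with antibody dilutions for 1 h and put on Huh-7 cells for about a day; IC50 from the dose curve.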
row,Binder,pseudovirus neutralization IC50
1,B1,> 10 µg/mL
2,B2,> 10 µg/mL
3,B3,> 10 µg/mL
4,B4,> 10 µg/mL
5,B5,> 10 µg/mL
6,B6,> 10 µg/mL

# Biological target: SARS-CoV-2 Omicron BA.2 spike pseudovirus
# Experiment: as above
# Procedure: as §1
row,Binder,pseudovirus neutralization IC50
1,B1,> 10 µg/mL
2,B2,> 10 µg/mL
3,B3,> 10 µg/mL
4,B4,> 10 µg/mL
5,B5,> 10 µg/mL
6,B6,> 10 µg/mL

# Biological target: SARS-CoV-2 Omicron BA.2.75 spike pseudovirus
# Experiment: as above
# Procedure: as §1
row,Binder,pseudovirus neutralization IC50
1,B1,> 10 µg/mL
2,B2,> 10 µg/mL
3,B3,> 10 µg/mL
4,B4,> 10 µg/mL
5,B5,> 10 µg/mL
6,B6,> 10 µg/mL

# Biological target: SARS-CoV-2 Omicron BA.5 spike pseudovirus
# Experiment: as above
# Procedure: as §1
row,Binder,pseudovirus neutralization IC50
1,B1,> 10 µg/mL
2,B2,> 10 µg/mL
3,B3,> 10 µg/mL
4,B4,> 10 µg/mL
5,B5,> 10 µg/mL
6,B6,> 10 µg/mL

# Biological target: SARS-CoV-2 Omicron BQ.1.1 spike pseudovirus
# Experiment: as above
# Procedure: as §1
row,Binder,pseudovirus neutralization IC50
1,B1,> 10 µg/mL
2,B2,> 10 µg/mL
3,B3,> 10 µg/mL
4,B4,> 10 µg/mL
5,B5,> 10 µg/mL
6,B6,> 10 µg/mL

# Biological target: SARS-CoV-2 Omicron XBB spike pseudovirus
# Experiment: as above
# Procedure: as §1
row,Binder,pseudovirus neutralization IC50
1,B1,> 10 µg/mL
2,B2,> 10 µg/mL
3,B3,> 10 µg/mL
4,B4,> 10 µg/mL
5,B5,> 10 µg/mL
6,B6,> 10 µg/mL

# Biological target: SARS-CoV-2 early D614G spike pseudovirus
# Experiment: as above
# Procedure: as §1
row,Binder,pseudovirus neutralization IC50
1,B1,> 10 µg/mL
2,B2,0.413 µg/mL
3,B3,1.43 µg/mL
4,B4,> 10 µg/mL
5,B5,6.25 µg/mL
6,B6,0.0387 µg/mL
